Results deposited as PubChem BioAssay AID1259414 (Drosophila RNAi Screening Center, 2018).
In all, the deposit lists about 24,000 reagents; shown is an unselected part of those that have a named target and a result. Of all reagents, about 1,210 (5%) are marked active. 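Inactive calls also include excluded dsRNAs with several or no targets, genes unexpressed in JW18, and well A1, regardless of score.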 Entries without a mark were called inactive. Reagents against one gene are numbered here. Names joined by + are all predicted targets of the reagent.

Aim: 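Host factors increasing or decreasing Wolbachia levels in cultured fly cells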 (primary screen)
Cells: Drosophila JW18 cells infected with Wolbachia
Reagent: long dsRNA against Drosophila genes, 0.25 µg dsRNA per well of a 384-well plate
Time to read-out: 5 days
Treatment: cells persistently infected with Wolbachia before knock-down; no added drug
Read-out: 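Imaged fluorescence in situ signal for Wolbachia 23S rRNA per DAPI-counted host cell, given as a robust z-score within each plate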
Direction: Wolbachia per cell robust z: higher = more Wolbachia per host cell than the plate typical
Hit rule: 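Active if absolute robust z reaches 1.5 in two or more of three replicates, leaving out multi- or no-target dsRNAs, genes unexpressed in JW18 and A1 wells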

Gene,reagent,"Wolbachia per cell robust z, rep 1","Wolbachia per cell robust z, rep 2","Wolbachia per cell robust z, rep 3"
Hsp22 + CG4456,1,-1.61,-1.76,-0.824
Hsp22 + CG4456,2,-6.08,-6.41,0.87
Pdxk (Pyridoxal kinase),1,-3.37,-0.646,0.699
Blm (Bloom syndrome helicase),1,-1.73,1.42,0.365
COX5BL (Cytochrome c oxidase subunit 5B-like),1,0.447,-0.332,0.0187
COX5BL (Cytochrome c oxidase subunit 5B-like),2,0.576,-3.32,0.721
crc (cryptocephal),1,0.359,-1.2,1.02
KaiR1D (Kainate-type ionotropic glutamate receptor subunit 1D),1,-6.41,-1.43,-0.749
CG32081,1,1.14,0.861,0.593
pbl (pebble),1,2.78 (active),2.38,3.39
pbl (pebble),2,1.83 (active),2.91,2.23
CG7133,1,-0.341,-5.19,0.786
nompA (no mechanoreceptor potential A),1,0.115,-0.229,-0.291
CG32109,1,0.622,0.155,0.459
Gas41,1,-1.07,0.563,-0.661

In a second layout: 7 of the entries above
CG32081 — Wolbachia per cell robust z, rep 1: 1.14; Wolbachia per cell robust z, rep 2: 0.861; Wolbachia per cell robust z, rep 3: 0.593
pbl (pebble) #1 — Wolbachia per cell robust z, rep 1: 2.78 (active); Wolbachia per cell robust z, rep 2: 2.38; Wolbachia per cell robust z, rep 3: 3.39
pbl (pebble) #2 — Wolbachia per cell robust z, rep 1: 1.83 (active); Wolbachia per cell robust z, rep 2: 2.91; Wolbachia per cell robust z, rep 3: 2.23
CG7133 — Wolbachia per cell robust z, rep 1: -0.341; Wolbachia per cell robust z, rep 2: -5.19; Wolbachia per cell robust z, rep 3: 0.786
nompA (no mechanoreceptor potential A) — Wolbachia per cell robust z, rep 1: 0.115; Wolbachia per cell robust z, rep 2: -0.229; Wolbachia per cell robust z, rep 3: -0.291
CG32109 — Wolbachia per cell robust z, rep 1: 0.622; Wolbachia per cell robust z, rep 2: 0.155; Wolbachia per cell robust z, rep 3: 0.459
Gas41 — Wolbachia per cell robust z, rep 1: -1.07; Wolbachia per cell robust z, rep 2: 0.563; Wolbachia per cell robust z, rep 3: -0.661

Continued:
Gene,reagent,"Wolbachia per cell robust z, rep 1","Wolbachia per cell robust z, rep 2","Wolbachia per cell robust z, rep 3"
Uba3 (Ubiquitin-like activating enzyme 3),1,-0.167,0.506,-0.858
Ndc1 (Nuclear division cycle 1),1,0.138,-0.0529,0.929
Tdc2 (Tyrosine decarboxylase 2),1,-0.933,-9.08,0.582
Tdc2 (Tyrosine decarboxylase 2),2,-0.462,0.232,-0.0737
Sodh2 (Sorbitol dehydrogenase 2),1,0.418,-0.309,-0.0218
Sodh2 (Sorbitol dehydrogenase 2),2,0.443,0.193,-1.28
GluRIID (Glutamate receptor IID),1,0.346,0.796,0.489
GluRIID (Glutamate receptor IID),2,0.305,0.676,0.00617
pst (pastrel),1,1.15,-5.62,0.661
Nca (Neurocalcin),1,-1.47,-1.43,-0.581
Rbp + h-cup,1,0.698,1.5,-2.15
Ir67c (Ionotropic receptor 67c),1,-0.567,0.983,-0.694
Dup99B (Ductus ejaculatorius peptide 99B),1,0.414,-3.9,-4.39
Dup99B (Ductus ejaculatorius peptide 99B),2,0.376,0.0419,-0.219
Jhe (Juvenile hormone esterase),1,-0.149,-0.449,0.208
Jhe (Juvenile hormone esterase),2,-0.703,-0.348,-1.64
Vha100-2 (Vacuolar H[+] ATPase 100kD subunit 2),1,0.318,-1.87,-0.441
Vha100-2 (Vacuolar H[+] ATPase 100kD subunit 2),2,-4.46,-0.0937,0.405
Dpm2 + CG12016,1,-0.937,0.73,0.887
TM4SF (Transmembrane 4 superfamily),1,0.554,-0.131,-5.27
CG30095,1,0.109,-0.509,0.203
CG5262,1,0.895,-0.276,1.08
CG15260,1,-0.608,-0.246,-0.532
mdy (midway),1,-0.334 (active),-1.74,-1.53
mdy (midway),2,-8.62,-0.129,1.19
CG7506,1,-8.05 (active),-0.186,-9.36
mtgo (miles to go),1,-0.0257,0.325,0.981
mtgo (miles to go),2,0.929,-0.739,0.809
mtgo (miles to go),3,0.205,0.147,0.963
mtgo (miles to go),4,-0.146,0.944,1.54
CG18132,1,1.3,-0.683,-0.84
